This is an account of results in patent US20140323691A1 (UAB RESEARCH FOUNDATION, published 2014).

Test [1] has as its target T1, BxpB (exosporium basal layer protein) (Bacillus anthracis).
T1 chain: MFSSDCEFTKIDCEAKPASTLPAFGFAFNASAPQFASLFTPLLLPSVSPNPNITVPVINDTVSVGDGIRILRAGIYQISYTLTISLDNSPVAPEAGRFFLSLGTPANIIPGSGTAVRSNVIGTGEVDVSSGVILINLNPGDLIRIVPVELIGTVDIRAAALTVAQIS
Kind of test: isopeptide bonds formed in vivo, LC-MS/MS.

The target of the next test is T2, CotE (Bacillus anthracis).
T2 chain: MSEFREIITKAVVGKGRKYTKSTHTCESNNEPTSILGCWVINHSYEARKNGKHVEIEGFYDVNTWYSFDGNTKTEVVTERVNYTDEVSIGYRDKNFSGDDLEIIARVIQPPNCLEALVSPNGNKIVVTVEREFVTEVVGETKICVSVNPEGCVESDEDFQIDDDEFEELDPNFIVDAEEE
The test is described as follows: isopeptide bonds formed in vivo, LC-MS/MS.

B1: CotY (other)
chain: SCNCNEDHHHHDCDFNCVSNVVRFIHELQECATTTCGSGCEVPFLGAHNSASVANTRPFILYTKAGAPFEAFAPSANLTSCRSPIFRVESIDDDDCAVLRVLSVVLGDTSPVPPTDDPICTFLAVPNARLISTNTCLTVDLSCFCAIQCLRDVTI
Turning to B1, the binding result (in test [1]; with CotE) was “binds” each time.

B2: ExsY (other)
chain: SCNENKHHGSSHCVVDVVKFINELQDCSTTTCGSGCEIPFLGAHNTASVANTRPFILYTKAGAPFEAFAPSANLTSCRSPIFRVESVDDDSCAVLRVLSVVLGDSSPVPPTDDPICTFLAVPNARLVSTSTCITVDLSCFCAIQCLRDVTI
For B2, the binding result (in test [1]; in the test with CotE) was “binds” throughout.
